{"source": "patent US9198429B2", "about": "“Heterocyclic alkanol-derivatives” (BAYER INTELLECTUAL PROPERTY GMBH, priority 2011, dated 2015)", "test_system": "Pyricularia oryzae", "assay": "Example D: Pyricularia test (rice)/induction of resistance", "settings": "500 ppm, rice plants, induction of resistance, inoculation 4 days after treatment, evaluation 7 days after inoculation", "data": [{"smiles": "CC(C)(Cc1ccc(SC(F)(F)F)cc1)C(C)(O)Cc1cncs1", "note": "(stereo not shown)", "values": [{"measurement": "Efficacy (%)", "result": 70, "unit": "%"}]}]}
